Anti-infective test results gathered from many reports (values: NIAID ChemDB through PubChem).

Shared fields: host cell toxicity; endpoint: CC50

CCn is the concentration with n% toxicity to the cells. Lines come from different laboratories, so protocols vary. An empty or dashed field is not shown. Two numbers with a dash give a range or band.

| SMILES | cells | method | value |
|---|---|---|---|
| [N-]=[N+]=Nc1ccc(CNc2ncnc3c2ncn3[C@H]2CC[C@@H](CO)O2)cc1 | Human fibroblasts | MTT | >5 µM |
| Nc1ccc(-c2nc3cc(Cl)ccc3c(=O)[nH]2)cc1 | OM-10.1 | MTT | 344.9 µM |
| CCCN(CCC)c1c([N+](=O)[O-])cc(C(=O)O)cc1[N+](=O)[O-] | MDCK cells |  | 93.1 µM |
| NC(=O)c1[nH]nc([C@@H]2O[C@H](CO)[C@@H](O)[C@H]2O)c1O | HEF |  | 32 µg/mL |
| CN(c1ccc2c(c1)S(=O)(=O)N/C(=c1\c(=O)c3cccn3n(Cc3ccc(F)cc3)c1=O)N2)S(C)(=O)=O | HCV Huh-7/C24 |  | >10 µM |
| O=c1[nH]c(-c2ccc(O)c(O)c2O)nc2ccccc12 | OM-10.1 | MTT | 51 µM |
| Nc1ncnc2c1ncn2C[C@@H](CF)OCP(=O)(O)O | HepG2 2.2.15 |  | >100 µM |
| CN(CCO)c1ccc(-c2nc3ccccc3c(=O)[nH]2)cc1 | OM-10.1 | MTT | 154.4 µM |
| CCOP(=O)(COCCn1cnc2c(=O)[nH]c(N)nc21)OCC | HB611 |  | 15.6 µM |
| CC(C)(C)C(=O)OCOP(=O)(COCCn1cnc2c(N)ncnc21)OCOC(=O)C(C)(C)C | HSB-2 | MTT | 0.7 µM |
| Cc1nc(N)c2[nH]c(=S)n(CC(CO)OCP(=O)(O)O)c2n1 | HB611 |  | >100 µM |
| CC(=O)N[C@@H](C=O)[C@@H](O)[C@H](O)[C@H](O)C(=O)O | HeLa |  | 200 µg/mL |
| CCCCCCCCCCCCCCCCOCC(O)CO | J774A.1 macrophages | resazurin | >200 µg/mL |
| Nc1ncnc2c1ncn2CCCOCP(=O)(O)O | HB611 |  | 64 µM |
| CCc1cc(CN2CCC(c3[nH]ncc3Cc3ccccc3)CC2)[nH]n1 | MAGI-CCR5 | MTS | >300 µM |
| NS(=O)(=O)c1cc([N+](=O)[O-])c(Nc2ccccc2)c([N+](=O)[O-])c1 | MDCK cells |  | 153 µM |
| N[C@@H]1[C@@H](O)[C@H](O)[C@@H](CO)O[C@H]1O | HeLa |  | 5000 µM |
| Cc1cc(O)c2c(c1)C(=O)C=CC2=O | J774A.1 |  | 3.91 µg/mL |
| O=c1[nH]c(=O)n([C@H]2C[C@H](O)[C@@H](CO)O2)cc1I | HSB-2 | MTT | 288 µM |
| CC(C)(C)NC(=O)[C@@H]1C[C@@H]2CCCC[C@@H]2CN1C[C@@H](O)[C@H](Cc1ccccc1)NC(=O)[C@H](CC(N)=O)NC(=O)c1ccc2ccccc2n1 | HCT-8 |  | >250 µg/mL |
| COC(=O)c1cc([N+](=O)[O-])c(N2CCOCC2)c([N+](=O)[O-])c1 | MDCK cells |  | >80 µM |
| C[C@@H]1CC[C@H]2[C@@H](C)C(=O)O[C@@H]3OC4(C)CC[C@@H]1[C@]32OO4 | HuH6 |  | >177 µM |
| Cc1cc2c(C(C)C)c(O)c(O)c(C=O)c2c(O)c1-c1c(C)cc2c(C(C)C)c(O)c(O)c(C=O)c2c1O | GHOST | MTT | 6.85 µM |
| Nc1ccnc(CN2CCC(c3[nH]ncc3Cc3ccccc3)CC2)n1 | MAGI-CCR5 | MTS | >300 µM |
| CCCCCCCCCCCCCC(=O)O[C@@H]1[C@@H](C)[C@@]2(O)[C@@H](C=C(CO)C[C@]3(O)C(=O)C(C)=C[C@@H]23)[C@@H]2C(C)(C)[C@]12OC(C)=O | HB611 |  | >200 µM |
| O=[N+]([O-])c1cc(C(F)(F)F)cc([N+](=O)[O-])c1Nc1ccccc1 | MDCK cells |  | >80 µM |
| CC1=CC2=C(C(C)C)C(O)C(=O)/C(=C\N[C@H](C)C(=O)O)C2C(O)=C1c1c(C)cc2c(C(C)C)c(O)c(O)c(C=N[C@@H](C)C(=O)O)c2c1O.[Na+].[Na+] | GHOST X4/R5 | MTT | 63.46 µM |
| CCCCC/C=C\C/C=C\C/C=C\C/C=C\CCCC(=O)O | HeLa |  | 50–100 µg/mL |
| Nc1nc(Cl)nc2c1ncn2/C=C1\CC1CO | DAUDI |  | >50 µM |
| O=c1/c(=C2/Nc3ccc(C4CCCS4(=O)=O)cc3S(=O)(=O)N2)c(=O)n(Cc2ccc(F)cc2)n2cccc12 | HCV Huh-7/C24 |  | >33 µM |
| Nc1ncnc2c1ncn2[C@@H]1O[C@](F)(COS(N)(=O)=O)[C@@H](O)[C@H]1O | HeLa |  | 75 µg/mL |
| CC(C)CN(C[C@@H](O)[C@H](Cc1ccccc1)NC(=O)O[C@H]1CCOC1)S(=O)(=O)c1ccc(N)cc1 | HCT-8 |  | >250 µg/mL |
| Nc1nc(F)nc2c1ncn2/C=C1\CC1CO | H-1 |  | >100 µM |
| O=c1[nH]c(=O)n([C@@H]2O[C@H](CO)[C@@H](O)[C@@H]2O)cc1/C=C/Br | CBMC | MTT | 98 µM |
| CO[C@@H]1C2=CC(O)C(O)C=C2O[C@@]2(C)CC[C@H]3C(C)(C)CCC[C@]3(C)[C@@H]12 | J774A.1 macrophages | resazurin | 8 µg/mL |
| CC1=C(/C=C/C(C)=C/C=C/C(C)=C/C=O)C(C)(C)CCC1 | HeLa |  | 100 µg/mL |
| Nc1ccn(CC(CF)OCP(=O)(O)O)c(=O)n1 | HB611 |  | >200 µM |
| c1ccc(-c2cccnc2)cc1 | SupT1 | MTT / absorbance | >1000 µM |
| c1cc(CN2CCCNCCNCCCNCC2)ccc1CN1CCCNCCNCCCNCC1 | PM1 | MTT / absorbance | >50 µM |
| c1ccc(Cc2cn[nH]c2C2CCN(Cc3cccnc3)CC2)cc1 | MAGI-CCR5 | MTS | >300 µM |
| CC1=CC2=C(C(C)C)C(O)C(=O)/C(=C\N[C@@H](C(=O)O)C(C)C)C2C(O)=C1c1c(C)cc2c(C(C)C)c(O)c(O)c(C=N[C@H](C(=O)O)C(C)C)c2c1O.[Na+].[Na+] | GHOST | MTT | 43.3 µM |
| CS(=O)(=O)Nc1ccc2c(c1)S(=O)(=O)N/C(=c1\c(=O)c3cccn3n(Cc3ccc(F)c(Cl)c3)c1=O)N2 | HCV Huh-7/C24 |  | >1 µM |
| Nc1ccc(CNc2ncnc3c2ncn3[C@H]2CC[C@@H](CO)O2)cc1 | Human fibroblasts | MTT | >5 µM |
| Nc1ncnc2c1ccn2[C@@H]1O[C@H](CO)[C@@H](O)[C@H]1O | HEF |  | <0.4 µg/mL |
| CC1=CC2=C(C(C)C)C(O)C(=O)/C(=C\N[C@H](CC(C)C)C(=O)O)C2C(O)=C1c1c(C)cc2c(C(C)C)c(O)c(O)c(C=N[C@@H](CC(C)C)C(=O)O)c2c1O.[Na+].[Na+] | GHOST | MTT | 43.66 µM |
| CCc1c(Sc2ccccn2)n(COCc2ccccc2)c(=O)[nH]c1=O | T4 | XTT | >0.98 µM |
| O=c1cc(-c2ccccc2)oc2cc(O)cc(O)c12 | OM-10.1/HIV-1 |  | 25 µM |
| c1ccc(Cc2cn[nH]c2C2CCN(Cc3ccccn3)CC2)cc1 | MAGI-CCR5 | MTS | >300 µM |
| Cc1cn([C@H]2C[C@H](N=[N+]=[N-])[C@@H](COP(=O)(O)OC[C@@H]3CC[C@H](n4cnc5c(=O)[nH]cnc54)O3)O2)c(=O)[nH]c1=O | BFU-E |  | 1.41 µM |
| O=c1[nH]cnc2c1ncn2[C@H]1CC[C@@H](CO)O1 | HELA-CD4+ |  | 2.3 µM |
| Nc1nccc2c1ncn2C[C@H]1COP(=O)(O)CO1 | HB611 |  | >200 µM |
| Nc1ncnc2c1ncn2[C@@H]1O[C@H](CO)[C@@H](O)[C@@H]1O | CBMC | MTT | 104 µM |
| NS(=O)(=O)c1cc([N+](=O)[O-])c(N2COC2)c([N+](=O)[O-])c1 | MDCK cells |  | 25.5 µM |
| NCC(=O)Nc1ccc(Cl)cc1C(=O)c1ccc[nH]1 | MOLT-4 |  | 7.9 µg/mL |
| NS(=O)(=O)c1cc([N+](=O)[O-])c(N2CCCCC2)c([N+](=O)[O-])c1 | MDCK cells |  | >80 µM |
| O=c1oc2ccccc2c2c1C(c1cccnc1)c1c(c3ccccc3oc1=O)O2 | SupT1 | MTT / absorbance | >1000 µM |
| OC[C@@H]1CC[C@H](n2cnc3c(NCc4ccccc4)ncnc32)O1 | Human fibroblasts | MTT | >5 µM |
| O=[N+]([O-])c1cc(C(F)(F)F)cc([N+](=O)[O-])c1N1COC1 | MDCK cells |  | >80 µM |

Repeating the first 8 entries:

[N-]=[N+]=Nc1ccc(CNc2ncnc3c2ncn3[C@H]2CC[C@@H](CO)O2)cc1 ; cells: Human fibroblasts ; method: MTT ; value: >5 µM
Nc1ccc(-c2nc3cc(Cl)ccc3c(=O)[nH]2)cc1 ; cells: OM-10.1 ; method: MTT ; value: 344.9 µM
CCCN(CCC)c1c([N+](=O)[O-])cc(C(=O)O)cc1[N+](=O)[O-] ; cells: MDCK cells ; value: 93.1 µM
NC(=O)c1[nH]nc([C@@H]2O[C@H](CO)[C@@H](O)[C@H]2O)c1O ; cells: HEF ; value: 32 µg/mL
CN(c1ccc2c(c1)S(=O)(=O)N/C(=c1\c(=O)c3cccn3n(Cc3ccc(F)cc3)c1=O)N2)S(C)(=O)=O ; cells: HCV Huh-7/C24 ; value: >10 µM
O=c1[nH]c(-c2ccc(O)c(O)c2O)nc2ccccc12 ; cells: OM-10.1 ; method: MTT ; value: 51 µM
Nc1ncnc2c1ncn2C[C@@H](CF)OCP(=O)(O)O ; cells: HepG2 2.2.15 ; value: >100 µM
CN(CCO)c1ccc(-c2nc3ccccc3c(=O)[nH]2)cc1 ; cells: OM-10.1 ; method: MTT ; value: 154.4 µM